Results on three substances are retold here after patent US20220380829A1, “Method of Diagonosizing Pathogens and their Antimicrobial Susceptibility” (HANGZHOU DIAN MEDICAL LABORATORY CO., LTD., priority 2019, published 2022).

The data set concerns Staphylococcus aureus. The data set can be described thus: WGS genomic phylogenetic tree and resistance determinant susceptibility prediction. The settings on record: 22 blinds; present method compared with VITEK2 AST.

Take Gentamicin: the “Negative predictive value (NPV)” value is 100.00% and the Specificity is 100.00%.

Regarding Teicoplanin, the “Negative predictive value (NPV)” value is on record as 100.00% and the Specificity is 100.00%.

With penicillin, the “Negative predictive value (NPV)” value is 100.00% and the Specificity is 100.00%.
